Values from PubChem BioAssay AID504761 (Drosophila RNAi Screening Center, 2011).
In all, the deposit lists about 22,000 reagents; this is an unselected part of those that have a named target and a result. In the full data, 116 (0.52%) were called active. 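Calls depend on retest data that are not deposited; infection was ranked per plate without normalising between plates; the unit of the infection score is not given.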 The raw values are shown without normalisation. The numbers tell different reagents against one gene apart. Names joined by + are all predicted targets of the reagent. Not all columns of the deposit are shown. The record does not give: the amount of reagent, the time to read-out.

- Purpose: 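Insect host genes that dengue virus relies on to spread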 (primary screen)
- System: D.Mel-2 cells from Drosophila
- Knock-down reagent: long dsRNA against Drosophila genes
- Treatment: infection with dengue virus type 2; dose and infection time not stated
- Measured: 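Per well on two replicate plates, imaging gave the percent of cells positive for viral envelope protein, ranked by infection, and a nuclear count of cells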
- Reading the numbers: infection score: higher = more virus-infected cells; cell count: higher = more cells in the well
- Hit rule: 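Low infection ranks in the two replicates (chance level up to 0.065) followed by a retest with a 1.5-fold or larger significant decrease, p below 0.05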
- Calls: active = confirmed: knock-down lowers infection; inactive = not picked or not confirmed

The opening 2 entries, ahead of the listing:
{"Gene": "mRpL17 (GeneID 38046)", "reagent": 1, "infection score, replicate 1": 4.32, "cell count, replicate 1": 5119, "Call": "inactive"}
{"Gene": "CG32188 (GeneID 317901)", "reagent": 1, "infection score, replicate 1": 0.2, "cell count, replicate 1": 6038, "Call": "inactive"}

Main list, repeating the preview:
{"Gene": "mRpL17 (GeneID 38046)", "reagent": 1, "infection score, replicate 1": 4.32, "cell count, replicate 1": 5119, "Call": "inactive"}
{"Gene": "CG32188 (GeneID 317901)", "reagent": 1, "infection score, replicate 1": 0.2, "cell count, replicate 1": 6038, "Call": "inactive"}
{"Gene": "CG5989 (GeneID 38984)", "reagent": 1, "infection score, replicate 1": 3.52, "cell count, replicate 1": 6593, "Call": "inactive"}
{"Gene": "CG42816 + CG42815", "reagent": 1, "infection score, replicate 1": 2.28, "cell count, replicate 1": 6136, "Call": "inactive"}
{"Gene": "lva (GeneID 31350)", "reagent": 1, "infection score, replicate 1": 15.9, "cell count, replicate 1": 6559, "Call": "inactive"}
{"Gene": "lva (GeneID 31350)", "reagent": 2, "infection score, replicate 1": 5.57, "cell count, replicate 1": 6530, "Call": "inactive"}
{"Gene": "Ugt50B3 (GeneID 246614)", "reagent": 1, "infection score, replicate 1": 10.2, "cell count, replicate 1": 6010, "Call": "inactive"}
{"Gene": "Ugt50B3 (GeneID 246614)", "reagent": 2, "infection score, replicate 1": 4.41, "cell count, replicate 1": 5736, "Call": "inactive"}
{"Gene": "Ccdc114 (GeneID 42024)", "reagent": 1, "infection score, replicate 1": 2.93, "cell count, replicate 1": 6340, "Call": "inactive"}
{"Gene": "et (GeneID 32975)", "reagent": 1, "infection score, replicate 1": 6.89, "cell count, replicate 1": 5997, "Call": "inactive"}
{"Gene": "shop (GeneID 32878)", "reagent": 1, "infection score, replicate 1": 1.84, "cell count, replicate 1": 6680, "Call": "inactive"}
{"Gene": "shop (GeneID 32878)", "reagent": 2, "infection score, replicate 1": 4.52, "cell count, replicate 1": 6482, "Call": "inactive"}
